From PMC12647020, “Recombinant expression and functional characterization of influenza A virus neuraminidase in a mammalian cell system” (2025)

Tests used:
[1] = target: H2N2-tet, tetrameric recombinant neuraminidase (NA) of influenza A virus H2N2/A/mallard/MT/Y61 with (human | influenza A virus H2N2/A/mallard/MT/Y61); assay: negative-stain electron microscopy
[2] = target: H5N8-tet, tetrameric recombinant neuraminidase (NA) of influenza A virus H5N8/A/Astrakhan/3212/2020 (human | influenza A virus H5N8/A/Astrakhan/3212/2020); assay: negative-stain electron microscopy

Work on “H2N2-tet, tetrameric recombinant neuraminidase (NA) of influenza A virus H2N2/A/mallard/MT/Y61 with” yielded a stoichiometry N [1] of 4.
Work on “H5N8-tet, tetrameric recombinant neuraminidase (NA) of influenza A virus H5N8/A/Astrakhan/3212/2020” yielded a stoichiometry N [2] of 4.
